Measured values from several laboratories, pooled; numbers as filed in NIAID ChemDB.

Common to all: cytotoxicity tests; endpoint: CC50

Blank or dashed fields: not listed here.

SMILES,read by,cell line,result
Oc1[nH]c2ccc(Cl)cc2c1N=NC(=S)Nc1ccccc1,,RD,>25 µM
CCOC(=O)[C@@]1(C)CC[C@]2(C)CC[C@]3(C)C(=CC(=O)[C@@H]4[C@@]5(C)CC/C(=N\OCc6cccc(C#N)c6)C(C)(C)[C@@H]5CC[C@]43C)[C@@H]2C1,MTT,K562,45.59 µM
Nc1nc2c(ncn2COC(CO)CO)c(=O)[nH]1,,COS 1,232 µg/mL
CCN(CC)C(=S)Nc1cccc(OCCCCCOc2ccc(-c3ccccc3)cc2)c1,MTS,Ava5-EG(delta4AB)SEAP,>1 µM
COc1c(C(=O)c2cnc3cc(=O)[nH]c(=O)n3c2)c(O)c(OC)c2occc12,,HCV replicon cells,341 µM
NC(=S)Nc1cccc(OCCCCCCOc2cccc3ccccc23)c1,MTS,Ava5-EG(delta4AB)SEAP,>1 µM
CO/C=C(/C(=O)OC)[C@H](C)[C@H](/C=C/c1ccccc1)OC(C)=O,,HL-60,20 µg/mL
CCc1ccc(CCN=C2NC(=O)/C(=C/c3ccc(-c4ccc(C(=O)O)c(O)c4)o3)S2)cc1,MTT,BAE,20 µM
CS(=O)(=O)C1(c2ccc(C(=O)NC34CC(c5nc(-c6cccc(Cl)c6)cs5)(C3)C4)o2)CC1,absorbance,Primary human hepatocytes,20.66 µM
CCOC(=O)[C@@]1(C)CC[C@]2(C)CC[C@]3(C)C(=CC(=O)[C@@H]4[C@@]5(C)CC/C(=N\OCc6ccc(C#N)cc6)C(C)(C)[C@@H]5CC[C@]43C)[C@@H]2C1,MTT,CT26,>100 µM
CCc1cn([C@H]2C[C@H](O)[C@@H](CO)O2)c(=O)[nH]c1=O,cell count,OMK,>700 µM
CCOC(=O)[C@@]1(C)CC[C@]2(C)CC[C@]3(C)C(=CC(=O)[C@@H]4[C@@]5(C)CC/C(=N\OCc6cc(C)nn6C)C(C)(C)[C@@H]5CC[C@]43C)[C@@H]2C1,MTT,CT26,20.21 µM
Oc1[nH]c2ccc(OC(F)(F)F)cc2c1N=NC(=S)Nc1ccccc1,,hRD,>25 µM
NC1=NC2C(C=CN2CC(CO)CCO)C(=O)N1,cell count,P3HR-1,>200 µM
CN1CCN(C(=S)Nc2cccc(OCCCCCOc3ccc(-c4ccccc4)cc3)c2)CC1,MTS,Ava5-EG(delta4AB)SEAP,>1 µM
O=C1/C(=C/c2ccc(-c3cc(C(F)(F)F)ccc3Cl)o2)SC(=S)N1Cc1ccc(Cl)cc1,MTT,BAE,2.4 µM
C[C@]12OC[C@@]1(n1ccc(=O)[nH]c1=O)O[C@H](CO)[C@H]2O,resazurin,Zluc,>100 µM
CNC(=S)Nc1ccc2c(c1)Cc1cc(Br)ccc1-2,MTS,Ava5-EG(delta4AB)SEAP,>1 µM
CCOC(=O)[C@@]1(C)CC[C@]2(C)CC[C@]3(C)C(=CC(=O)[C@@H]4[C@@]5(C)CC/C(=N\OCc6cccc(Br)c6)C(C)(C)[C@@H]5CC[C@]43C)[C@@H]2C1,MTT,CT26,>100 µM
COc1ccc(Cn2c(N)c(-c3nc4ccccc4[nH]3)c3nc(C#N)c(C#N)nc32)cc1O,resazurin / fluorescence,L6 rat skeletal myoblasts,187 µM
CS(=O)(=O)C1(c2nsc(C(=O)NC34CC(c5nc(-c6cccc(Cl)c6)cs5)(C3)C4)n2)CC1,absorbance,Primary human hepatocytes,29.65 µM
CN(C)CCn1c(N)c(-c2nc3ccccc3[nH]2)c2nc(C#N)c(C#N)nc21,resazurin / fluorescence,L6 rat skeletal myoblasts,6 µM
CN(C)C(=S)N=Nc1c(O)[nH]c2ccccc12,,hRD,>25 µM
O=C(O)CC1CC(=O)Oc2c1ccc(O)c2O,,HOS,54 µM
Cc1ccc2[nH]c(O)c(N=NC(=S)Nc3ccccc3)c2c1,,hRD,>25 µM
O=c1[nH]c(=O)n([C@H]2C[C@H](O)[C@@H](CO)O2)cc1I,cell count,P3HR-1,≤14 µM
CS(=O)(=O)C1(c2ccc(C(=O)NC34CC(c5cnn(-c6ccc(Cl)cc6)n5)(C3)C4)o2)CC1,absorbance,Primary human hepatocytes,149 µM
CCCN(CCC)C(=S)N=Nc1c(O)[nH]c2ccccc12,,hRD,>25 µM
Cc1cc(C=O)cc(C)c1Oc1cc(Nc2ccc(C#N)cc2)nc2ccccc12,MTT,HuCCA-1,29.4 µM
CS(=O)(=O)C1(c2nsc(C(=O)NCCC3(c4ccnc(-c5ccc(Cl)cc5)n4)CCC3)n2)CC1,absorbance,Primary human hepatocytes,127 µM
CCOC(=O)[C@@]1(C)CC[C@]2(C)CC[C@]3(C)C(=CC(=O)[C@@H]4[C@@]5(C)CC/C(=N\OCc6ccccc6F)C(C)(C)[C@@H]5CC[C@]43C)[C@@H]2C1,MTT,CT26,21.72 µM
CC[C@@H]1/C=C(\C)C[C@H](C)C[C@H](OC)[C@H]2O[C@@](O)(C(=O)C(=O)N3CCCC[C@H]3C(=O)O[C@H](/C(C)=C/[C@H]3CC[C@H](O)[C@H](OC)C3)[C@H](C)[C@@H](O)CC1=O)[C@H](C)C[C@@H]2OC,,COS 1,54 µg/mL
Cc1ccc(NC(=O)N=Nc2c(O)[nH]c3ccccc23)cc1,,hRD,>25 µM
NC(=S)Nc1cccc(OCCCCCOc2ccc(N3CCOCC3)cc2)c1,MTS,Ava5-EG(delta4AB)SEAP,>1 µM
O=c1[nH]c(=O)n([C@@H]2O[C@H](CO)[C@@H](O)[C@@H]2O)cc1/C=C/Br,cell count,P3HR-1,>500 µM
CCOC(=O)[C@@]1(C)CC[C@]2(C)CC[C@]3(C)C(=CC(=O)[C@@H]4[C@@]5(C)CC/C(=N\OCc6ccc(-c7ccccc7)cc6)C(C)(C)[C@@H]5CC[C@]43C)[C@@H]2C1,MTT,CT26,19.83 µM
NC(=S)Nc1ccc2c(c1)C(=O)c1ccccc1-2,MTS,Ava5-EG(delta4AB)SEAP,>1 µM
O=C1NC(=Nc2ccc(F)c(Cl)c2)S/C1=C\c1ccc(-c2ccc(C(=O)O)c(O)c2)o1,MTT,HT-29,1.1 µM
N#Cc1nc2c(-c3nc4ccccc4[nH]3)c(N)n(CCCC(F)(F)F)c2nc1C#N,resazurin / fluorescence,L6 rat skeletal myoblasts,81 µM
CO/C=C(/C(=O)OC)[C@H](C)C(=O)/C=C/c1ccccc1,,HL-60,10 µg/mL
Cc1cccc(NC(=S)N=Nc2c(O)[nH]c3ccccc23)c1,,hRD,>25 µM
N#Cc1nc2c(-c3nc4ccccc4s3)c(N)n(CCCn3ccnc3)c2nc1C#N,resazurin / fluorescence,L6 rat skeletal myoblasts,18 µM
O=C1NC(=Nc2ccccc2O)S/C1=C/c1ccc(O)c(O)c1,,HOS,30 µM
NC(=S)Nc1ccc(OCCCCCc2ccccc2)cc1,MTS,Ava5-EG(delta4AB)SEAP,>1 µM
Cc1ccccc1NC(=S)N=Nc1c(O)[nH]c2ccccc12,,hRD,>25 µM
O=c1[nH]c(=O)n([C@@H]2O[C@H](CO)[C@@H](O)[C@@H]2O)cc1/C=C/Br,,COS 1,422 µg/mL
CCN(CC)CCCC(C)n1c(N)c(-c2nc3ccccc3n2C)c2nc(C#N)c(C#N)nc21,resazurin / fluorescence,L6 rat skeletal myoblasts,12 µM

Repeating the final 6 entries:

SMILES | read by | cell line | result
N#Cc1nc2c(-c3nc4ccccc4s3)c(N)n(CCCn3ccnc3)c2nc1C#N | resazurin / fluorescence | L6 rat skeletal myoblasts | 18 µM
O=C1NC(=Nc2ccccc2O)S/C1=C/c1ccc(O)c(O)c1 |  | HOS | 30 µM
NC(=S)Nc1ccc(OCCCCCc2ccccc2)cc1 | MTS | Ava5-EG(delta4AB)SEAP | >1 µM
Cc1ccccc1NC(=S)N=Nc1c(O)[nH]c2ccccc12 |  | hRD | >25 µM
O=c1[nH]c(=O)n([C@@H]2O[C@H](CO)[C@@H](O)[C@@H]2O)cc1/C=C/Br |  | COS 1 | 422 µg/mL
CCN(CC)CCCC(C)n1c(N)c(-c2nc3ccccc3n2C)c2nc(C#N)c(C#N)nc21 | resazurin / fluorescence | L6 rat skeletal myoblasts | 12 µM

Lines come from different laboratories, so protocols vary. CCn is the concentration with n% toxicity to the cells.